Measured values as given in patent US20070292386A9, “Vaccine formulations for intradermal delivery comprising adjuvants and antigenic agents” (priority 2004, published 2007).

Test system: influenza antigen (Influenza APR834)
Assay type: in vivo
Parameters: key: increased immune response from the animals (as denoted by X) as compared to the inoculums that contained pDNA-HA alone, or non-immune inoculums
Details: adjuvant with pDNA-HA, intradermal, Balb/c mice, one immunization, sera 21 days, vs pDNA-HA alone

For IL-2: cytokine interleukin 2, the “Increased Immune Response, pDNA-HA” value was “X”.
